Anti-infective test results gathered from many reports (values: NIAID ChemDB through PubChem).

All rows: growth or infection tests; species: HIV-1; measure: inhibition

Blank or dashed fields: not listed here. Percent inhibition refers to the dose given; in toxicity tests it is the harm to the cells. Rows are shuffled and stem from different studies.

| smiles | strain or isolate | cell line | method | setting | dose | value |
|---|---|---|---|---|---|---|
| CN=C1CN=C(c2ccc[nH]2)c2cc(Cl)ccc2N1 | LAV-1 | HT4 + HT4-6C | syncytia | - | 0.1 µM | 26% |
| COc1ccccc1CN[C@H]1C2CCN(CC2)[C@H]1C(c1ccccc1)c1ccccc1 | BaL | Macrophage + Monocytes/macrophages | RT activity | - | 0.1 µM | 43% |
| CCCCCCCCCCCCCCCCOP(=O)(OC[C@H]1OC(O)[C@H](O)[C@@H](O)[C@@H]1O)OC[C@H]1O[C@@H](n2cc(C)c(=O)[nH]c2=O)C[C@@H]1N=[N+]=[N-] | LAV-Bru | U-937 | RT activity | 11 d | 0.2 µM | 0% |
| COc1ccc(CN[C@@H](C(=O)N[C@H]2c3ccccc3C[C@H]2O)[C@H](O)[C@H](Cc2ccccc2)NC(=O)[C@@H](NC(=O)OCc2ccccc2)C(C)(C)C)cc1 | K31 | Primary T4 cells + T4 | p24 | - | 0.31 µM | 90% |
| Cc1cn([C@H]2C[C@H](N=[N+]=[N-])[C@@H](COP(=O)(O)OC[C@H]3OC(O)[C@@H](O)[C@@H](O)[C@@H]3O)O2)c(=O)[nH]c1=O | LAV-Bru | PBL | RT activity | 7 d | 5 µM | 94% |
| O=C(O)P(=O)(O)O | IIIB | PBL | RT activity | 21 d | 16 µM | 59% |
| Cc1cn([C@H]2C[C@H](N=[N+]=[N-])[C@@H](CO)O2)c(=O)[nH]c1=O | IIIB | PBL (activated) + PBL | RT activity | - | 0.03 µM | 98% |
| C/C(=C(/CCO)SSCC1CCCO1)N(C=O)Cc1cnc(C)nc1N | IIIB | MOLT-4/HIV-1(IIIB) + MOLT-4 | p24 | - | 50 µM | 0% |
| Nc1ncnc2c1ncn2[C@H]1CC[C@@H](CO)O1 | LAV-1 | CEM | virus yield | - | 100 µM | >100% |
| Nc1nc(NC2CC2)c2ncn([C@H]3C=C[C@@H](CO)C3)c2n1 | BZ X4 | PBL (resting) + PBL | RT activity | - | 4 µM | 99% |
| Cc1cn([C@H]2C[C@H](N=[N+]=[N-])[C@@H](CO)O2)c(=O)[nH]c1=O | LAV-Bru | PBL | RT activity | 7 d | 1 µM | 94% |
| O=C1N(Cc2ccc(CO)cc2)[C@H](Cc2ccccc2)[C@H](O)[C@@H](O)[C@@H](Cc2ccccc2)N1Cc1ccc(CO)cc1 | R clinical isolate | PBMC | p24 | - | 0.09 µM | 90% |
| Nc1ccn([C@H]2CC[C@@H](CO)O2)c(=O)n1 | BZ X4 | PBL (resting) + PBL | RT activity | - | 0.2 µM | 89% |
| Cc1cn([C@H]2C[C@H](N=[N+]=[N-])[C@@H](CO)O2)c(=O)[nH]c1=O | LAV-1 | HT4 + HT4-6C | syncytia | - | 0.1 µM | 86% |
| c1cc(CN2CCCNCCNCCCNCC2)ccc1CN1CCCNCCNCCCNCC1 | 92RW026 CLADE A R5 | PBMC | p24 | - | 0.1 µM | 23% |
| O=S(=O)(O)c1cc(N=C=S)ccc1CCc1ccc(N=C=S)cc1S(=O)(=O)O | GB8 | JM | syncytia | - | 50 µg/mL | 100% |

Repeating the final 2 entries:

smiles,strain or isolate,cell line,method,setting,dose,value
c1cc(CN2CCCNCCNCCCNCC2)ccc1CN1CCCNCCNCCCNCC1,92RW026 CLADE A R5,PBMC,p24,-,0.1 µM,23%
O=S(=O)(O)c1cc(N=C=S)ccc1CCc1ccc(N=C=S)cc1S(=O)(=O)O,GB8,JM,syncytia,-,50 µg/mL,100%